Measurements as given in PMC3642348, “Human and Viral Golgi Anti-apoptotic Proteins (GAAPs) Oligomerize via Different Mechanisms and Monomeric GAAP Inhibits Apoptosis and Modulates Calcium*^([image sbox.jpg])” (2013).

Experiments:
[1] = target: vGAAP C9S C-terminally tagged with GFP or tandem Tomato (Tom); assay: FRET (acceptor photobleaching) in HeLa cells; settings: vC9S-GFP + vC9S-Tom; cells fixed and imaged 16 h after transfection; parent: est. 0.31; read off a plot
[2] = target: vGAAP C9S/C60S C-terminally tagged with GFP or tandem Tomato (Tom); assay: FRET (acceptor photobleaching) in HeLa cells; settings: vC9+60S-GFP + vC9+60S-Tom; cells fixed and imaged 16 h after transfection; parent: est. 0.31; read off a plot
[3] = target: vGAAP C60S C-terminally tagged with GFP or tandem Tomato (Tom); assay: FRET (acceptor photobleaching) in HeLa cells; settings: vC60S-GFP + vC60S-Tom; cells fixed and imaged 16 h after transfection; parent: est. 0.31; read off a plot
[4] = target: vGAAP C9S, C-terminally HA-tagged; assay: reducing SDS-PAGE and anti-HA immunoblot, Li-COR band quantification; settings: +DTT; lysates from transfected HeLa cells; parent: est. 0.020; read off a plot
[5] = target: vGAAP C9S, C-terminally HA-tagged; assay: non-reducing SDS-PAGE and anti-HA immunoblot, Li-COR band quantification; settings: -DTT; lysates from transfected HeLa cells; parent: est. 1.6; read off a plot
[6] = target: vGAAP CXS (all cysteines mutated to serines), C-terminally HA-tagged; assay: reducing SDS-PAGE and anti-HA immunoblot, Li-COR band quantification; settings: +DTT; lysates from transfected HeLa cells; parent: est. 0.020; read off a plot
[7] = target: vGAAP CXS (all cysteines mutated to serines), C-terminally HA-tagged; assay: non-reducing SDS-PAGE and anti-HA immunoblot, Li-COR band quantification; settings: -DTT; lysates from transfected HeLa cells; parent: est. 1.6; read off a plot
[8] = target: vGAAP C9S/C60S, C-terminally HA-tagged; assay: reducing SDS-PAGE and anti-HA immunoblot, Li-COR band quantification; settings: +DTT; lysates from transfected HeLa cells; parent: est. 0.020; read off a plot
[9] = target: vGAAP C9S/C60S, C-terminally HA-tagged; assay: non-reducing SDS-PAGE and anti-HA immunoblot, Li-COR band quantification; settings: -DTT; lysates from transfected HeLa cells; parent: est. 1.6; read off a plot
vGAAP-HA C42S [10] = assay: reducing SDS-PAGE and anti-HA immunoblot, Li-COR band quantification; settings: +DTT; lysates from transfected HeLa cells; parent: est. 0.020; read off a plot
vGAAP-HA C42S [11] = assay: non-reducing SDS-PAGE and anti-HA immunoblot, Li-COR band quantification; settings: -DTT; lysates from transfected HeLa cells; parent: est. 1.6; read off a plot
[12] = target: vGAAP C60S, C-terminally HA-tagged; assay: reducing SDS-PAGE and anti-HA immunoblot, Li-COR band quantification; settings: +DTT; lysates from transfected HeLa cells; parent: est. 0.020; read off a plot
[13] = target: vGAAP C60S, C-terminally HA-tagged; assay: non-reducing SDS-PAGE and anti-HA immunoblot, Li-COR band quantification; settings: -DTT; lysates from transfected HeLa cells; parent: est. 1.6; read off a plot
vGAAP-HA C101S [14] = assay: reducing SDS-PAGE and anti-HA immunoblot, Li-COR band quantification; settings: +DTT; lysates from transfected HeLa cells; parent: est. 0.020; read off a plot
vGAAP-HA C101S [15] = assay: non-reducing SDS-PAGE and anti-HA immunoblot, Li-COR band quantification; settings: -DTT; lysates from transfected HeLa cells; parent: est. 1.6; read off a plot
vGAAP-HA C190S [16] = assay: reducing SDS-PAGE and anti-HA immunoblot, Li-COR band quantification; settings: +DTT; lysates from transfected HeLa cells; parent: est. 0.020; read off a plot
vGAAP-HA C190S [17] = assay: non-reducing SDS-PAGE and anti-HA immunoblot, Li-COR band quantification; settings: -DTT; lysates from transfected HeLa cells; parent: est. 1.6; read off a plot

Q: How did the other: FRET efficiency [1] turn out when “vGAAP C-terminally tagged with GFP or tandem Tomato (Tom) C9S” was run?
A: 0.046

Q: With “vGAAP C-terminally tagged with GFP or tandem Tomato (Tom) C9S; C60S” as the substance, how does the other: FRET efficiency [2] read?
A: 0.073

Q: “vGAAP C-terminally tagged with GFP or tandem Tomato (Tom) C60S” was tested. Which other: FRET efficiency [3] did it give?
A: 0.05

Q: What does the source list for “viral GAAP (vGAAP), C-terminally HA-tagged C9S”?
A: other: Dimer/Monomer ratio [4]: 0.017; other: Dimer/Monomer ratio [5]: 0.22

Q: What does the source list for “viral GAAP (vGAAP), C-terminally HA-tagged C9S; C42S; C60S; C101S; C190S”?
A: other: Dimer/Monomer ratio [6]: 0.01; other: Dimer/Monomer ratio [7]: 0.0095

Q: Which other: Dimer/Monomer ratio [8] does the source give for “viral GAAP (vGAAP), C-terminally HA-tagged C9S; C60S” here?
A: 0.009

Q: What about the other: Dimer/Monomer ratio [9] of the same substance?
A: 0.017

Q: What does the source list for “viral GAAP (vGAAP), C-terminally HA-tagged C42S”?
A: other: Dimer/Monomer ratio (vGAAP-HA C42S [10]): 0.022; other: Dimer/Monomer ratio (vGAAP-HA C42S [11]): 3.2

Q: What does the source list for “viral GAAP (vGAAP), C-terminally HA-tagged C60S”?
A: other: Dimer/Monomer ratio [12]: 0.012; other: Dimer/Monomer ratio [13]: 0.85

Q: Which results are given for “viral GAAP (vGAAP), C-terminally HA-tagged C101S”?
A: other: Dimer/Monomer ratio (vGAAP-HA C101S [14]): 0.029; other: Dimer/Monomer ratio (vGAAP-HA C101S [15]): 1.4

Q: “viral GAAP (vGAAP), C-terminally HA-tagged C190S” was tested. Which other: Dimer/Monomer ratio (vGAAP-HA C190S [16]) did it give?
A: 0.024

Q: And the other: Dimer/Monomer ratio (vGAAP-HA C190S [17])?
A: 1.9
